Measurements reported in publication PMC3426546, “A Unique Bivalent Binding and Inhibition Mechanism by the Yatapoxvirus Interleukin 18 Binding Protein” (2012).

Biological target: ECTV-IL18BP expressed and secreted from mammalian cells, biotinylated (ectromelia virus)
Assay: SPR

Substance | Kd | koff | kon
IL18 P57R,S105R (ligand) | 4 nM | 0.00039 s⁻¹ | 90000 M⁻¹ s⁻¹
IL18 P57R (ligand) | 25 nM | 0.0008 s⁻¹ | 40000 M⁻¹ s⁻¹
IL18 S105R (ligand) | 0.1 nM | 2e-05 s⁻¹ | 350000 M⁻¹ s⁻¹
